Reference: ChEMBL document CHEMBL1155465, “"Viologen" dendrimers as antiviral agents: the effect of charge number and distance” (J Med Chem, 2010)

Tests used:
[1] = tested on: Human immunodeficiency virus 1; experiment: Antiviral activity against HIV1 3B infected in human MT4 cells after 5 days by MTT assay; details: strain 3B
[2] = Selectivity index, ratio of CC50 for human MT4 cells to EC50 for HIV1 3B; assay type: toxicity, cell-based
How it was run: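 MT-4 cells in RPMI 1640 with 10% heat-inactivated FCS, 2 mM L-glutamine, 0.1% bicarbonate and gentamicin, seeded at 6 × 10⁵ cells/mL final with virus or mock infection. Viability read by MTT after 5 days at 540 and 690 nm, using the median OD of three wells. CC50 is 50% loss of mock-infected OD540. EC50 is 50% inhibition of virus-induced CPE. SI = CC50/EC50. Mean ± SD of ≥2 experiments.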

SMILES	EC50 [1]	Ratio CC50/EC50 [2]
O=[N+]([O-])c1ccc(-[n+]2ccc(-c3cc[n+](-c4ccc([N+](=O)[O-])cc4[N+](=O)[O-])cc3)cc2)c([N+](=O)[O-])c1	> 42.2 µM	
F[P-](F)(F)(F)(F)F.F[P-](F)(F)(F)(F)F.O=[N+]([O-])c1ccc(-[n+]2ccc(-c3cc[n+](-c4ccc([N+](=O)[O-])cc4[N+](=O)[O-])cc3)cc2)c([N+](=O)[O-])c1		≤ 2.54
